Pooled drug test results. Numbers come from NIAID ChemDB, via PubChem.

Common to all: tests in culture; organism: HIV-1; endpoint: EC50

An empty or dashed field is not shown.

| compound | method | cell line | setting | mutations | strain | value |
|---|---|---|---|---|---|---|
| CCOP(=O)(N[C@@H](C)C(=O)OC)OC[C@H]1O[C@@H](n2cc(C)c(=O)[nH]c2=O)C[C@@H]1N=[N+]=[N-] | p24 | C8166 |  |  | IIIB | 4 µM |
| O=c1[nH]cnc2c1ncn2[C@H]1CC[C@@H](CO)O1 | RT activity | MT-2 |  |  | PDBC | 2.7 µM |
| CC(C)c1cc(=O)oc2c3c(c4c(c12)OC(C)(C)C=C4)C[C@H](C)[C@@H](C)[C@@H]3O |  | CEM + CEM-SS |  |  | SKI | 0.09 µM |
| COc1ccc2c(c1)N(C(=O)OC(C)C)[C@@H](CSC)C(=S)N2 | p24 | H9 |  |  | MN | 0.007 µg/mL |
| CC(C)=CCN1Cc2cccc3[nH]c(=S)n(c23)C[C@@H]1C | RT activity | PBMC |  |  | Group O isolate | 5.4 µM |
| Cc1cn([C@H]2C=C[C@@H](CO)O2)c(=O)[nH]c1=O | p24 | PBMC |  |  | 006 | 0.36 µM |
| CC(C)Nc1cccnc1N1CCN(C(=O)c2cc3cc(NS(C)(=O)=O)ccc3[nH]2)CC1 | p24 | H9 |  | RT-L74V G190E | A2(RT-L74V G190E) | >10 µg/mL |
| O=C1N(Cc2ccccc2)[C@H](Cc2ccccc2)[C@H](O)CN(Cc2ccccc2)N1Cc1ccccc1 |  | MT-4 |  |  |  | 2.86 µM |
| CC(C)(C)C(=O)SCCOC(=O)P(=O)(O)OCCSC(=O)C(C)(C)C | RT activity | CEM + CEM-SS |  |  | LAI | 27 µM |
| CC(C)c1cc(=O)oc2c3c(c4c(c12)OC(C)(C)C=C4)C[C@@H](C)[C@H](C)[C@@H]3O |  | CEM + CEM-SS |  |  | IIIB | 0.2 µM |
| CC(C)(C)NC(=O)[C@@H]1CN(Cc2cccnc2)CCN1C[C@@H](O)C[C@@H](Cc1ccccc1)C(=O)N[C@H]1c2ccccc2C[C@H]1O | p24 | PBMC |  |  | 006 | 0.0032 µM |
| CCOc1ccc(-c2c3nc(c(-c4ccc(OCC)cc4)c4ccc([nH]4)c(-c4ccc(OCC)cc4)c4nc(c(-c5ccc(OCC)cc5)c5ccc2[nH]5)C=C4)C=C3)cc1 | RT activity | PBMC |  |  | LAV | 20.2 µM |
| Cc1cn([C@H]2C[C@H](N=[N+]=[N-])[C@@H](CO)O2)c(=O)[nH]c1=O | p24 | C8166 |  |  | BILA1906-resistant (PR V32I A71V) | 0.006 µM |
| O=c1[nH]c(=O)n([C@H]2C[C@H](O)[C@@H](CO)O2)cc1C12B3B4B5B6B(B3B1B42)B1B5C61 | cytopathic effect / MTT | PBMC |  |  |  | 73.2 µM |
| C1CNCCNCC(CCOCCOCCC2CNCCNCCCNCCNC2)CNCCNC1 | cytopathic effect / MTT | MT-4 |  |  | RF | 2.27 µM |
| C/C(=C/CC[C@@H](C)[C@H]1CC[C@@]2(C)C3CCC4C(C)(C)C(=O)CC[C@@]45CC35CC[C@]12C)C(=O)O | GFP | HOS.R5 + HOS |  |  | IIIB | >44.1 µM |
| CC(C)Nc1cccnc1N1CCN(C(=O)c2cc3cc(NS(C)(=O)=O)ccc3[nH]2)CC1 | RT activity | PBMC |  |  | Group O isolate | 15.5 µM |
| C=C(C)OC(=O)N1c2cc(Cl)ccc2NC(=S)C1(C)C |  | CEM |  |  | IIIB | 0.0013 µM |
| COc1ccc(-c2oc3c(CC=C(C)C)c(OC4O[C@H](CO)[C@@H](O)[C@H](O)[C@H]4O)cc(O)c3c(=O)c2O[C@@H]2O[C@@H](C)[C@H](O)[C@@H](O)[C@H]2O)cc1 | PCR | PBMC |  |  | BK132 | 9.371 µM |
| Cc1cn([C@H]2C[C@H](N=[N+]=[N-])[C@@H](CO)O2)c(=O)[nH]c1=O | p24 | MT-4 |  | RT-M184V | HXB2-D184 (RT-M184V) | 0.06 µM |
| O=c1[nH]c(=O)n([C@H]2C[C@H](O)[C@@H](CO)O2)cc1/C=C/Br | cytopathic effect / trypan blue | MT-4 |  |  |  | >500 µM |
| Cc1cn([C@H]2C[C@H](N=[N+]=[N-])[C@@H](CO)O2)c(=O)[nH]c1=O | MTT | MT-4 |  |  |  | 0.005 µg/mL |
| C1CNCCNCCNCCN1 | cytopathic effect / MTT | MT-4 | 4 d |  | IIIB | >19.5 µM |
| CC(C)(C)NC(=O)[C@@H]1C[C@@H]2CCCC[C@@H]2CN1C[C@@H](OC(=O)CCCCOc1ccc(C[C@H](N)C(=O)O)cc1)[C@H](Cc1ccccc1)NC(=O)[C@H](CC(N)=O)NC(=O)c1ccc2ccccc2n1 | RT activity | CEM + CEM-SS |  |  | LAI | 0.039 µM |
| Cc1cccc(C)c1OCC(=O)N[C@@H](Cc1ccccc1)[C@H](O)CN1CC[C@@H](Sc2ccncc2)C[C@H]1C(=O)NC(C)(C)C | p24 | C8166 |  |  | IIIB | 0.002 µM |
| CC(C)c1cc(=O)oc2c3c(c4c(c12)OC(C)(C)C=C4)O[C@@H](C)[C@H](C)C3=O |  | CEM + CEM-SS |  |  | RF | 15.9 µM |
| CCCCCCCCOC(=O)P(=O)(OC[C@H]1O[C@@H](n2cc(C)c(=O)[nH]c2=O)C[C@@H]1N=[N+]=[N-])OC[C@H]1O[C@@H](n2cc(C)c(=O)[nH]c2=O)C[C@@H]1N=[N+]=[N-] | cytopathic effect / MTT | MT-4 |  |  | IIIB | 0.013 µM |
| CN(C)c1ccc(-c2c3nc(c(-c4ccc(N(C)C)cc4)c4ccc([nH]4)c(-c4ccc(N(C)C)cc4)c4nc(c(-c5ccc(N(C)C)cc5)c5ccc2[nH]5)C=C4)C=C3)cc1 | RT activity | PBMC |  |  | LAV | >100 µM |
| O=C1N(Cc2ccc(CO)cc2)[C@H](Cc2ccccc2)[C@H](O)CN(Cc2ccccc2)N1Cc1ccc(CO)cc1 |  | MT-4 |  |  |  | 0.09 µM |
| Cc1cn([C@H]2C=C[C@@H](COP3(=O)OCc4ccc5ccccc5c4O3)O2)c(=O)[nH]c1=O |  | CEM |  |  |  | 0.11 µM |
| CCCCCCCCCCCC(=O)NCC(COP(=O)([O-])OCCC[N+](C)(C)C)OCCCCCCCC | syncytia | CEM |  |  | IIIB | 1.02 µM |
| CC(C)=CCN1Cc2cc(Cl)cc3[nH]c(=S)n(c23)C[C@@H]1C |  | CEM |  |  | IIIB | 0.06 µM |
| Cc1cn([C@H]2C=C[C@@H](COP3(=O)OCc4c(ccc5ccccc45)O3)O2)c(=O)[nH]c1=O |  | CEM |  |  |  | 0.08 µM |
| Cc1cn([C@H]2C[C@H](N=[N+]=[N-])[C@@H](CO)O2)c(=O)[nH]c1=O | cytopathic effect / trypan blue | MT-4 |  |  | KK-1 | 0.003 µM |
| COc1ccc(-c2c3nc(c(-c4ccc(OC)cc4OC)c4ccc([nH]4)c(-c4ccc(OC)cc4OC)c4nc(c(-c5ccc(OC)cc5OC)c5ccc2[nH]5)C=C4)C=C3)c(OC)c1 | RT activity | PBMC |  |  | LAV | >100 µM |
| Cc1cc(S(=O)(=O)Nc2n[nH]c(N)n2)c(S)cc1Cl |  | CEM |  |  |  | 26 µM |
| CC(C)(C)NC(=O)[C@@H]1CN(Cc2cccnc2)CCN1C[C@@H](O)C[C@@H](Cc1ccccc1)C(=O)N[C@H]1c2ccccc2C[C@H]1OC(=O)CCCCOc1ccc(C[C@H](N)C(=O)O)cc1 | cytopathic effect / MTT | MT-4 |  |  | IIIB | 0.047 µM |
| Cc1cn([C@H]2C=C[C@@H](COP3(=O)Oc4ccccc4C(C(Cl)(Cl)Cl)O3)O2)c(=O)[nH]c1=O |  | CEM |  |  |  | 0.2 µM |
| CC(C)(C)c1cc(-c2c3nc(c(-c4cc(C(C)(C)C)c(O)c(C(C)(C)C)c4)c4ccc([nH]4)c(-c4cc(C(C)(C)C)c(O)c(C(C)(C)C)c4)c4nc(c(-c5cc(C(C)(C)C)c(O)c(C(C)(C)C)c5)c5ccc2[nH]5)C=C4)C=C3)cc(C(C)(C)C)c1O | RT activity | PBMC |  |  | LAV | 98.6 µM |
| Nc1ccn([C@H]2CC[C@@H](CO)O2)c(=O)n1 | cytopathic effect / MTT | CEM + CEM-SS |  |  | RF | 0.018 µM |
| CC(CCC[C@@H](C)[C@H]1CC[C@@]2(C)[C@@H]3CC[C@H]4C(C)(C)C(=O)CCC45CC35CC[C@]12C)C(=O)O | GFP | HOS.R5 + HOS |  |  | IIIB | >43.9 µM |
| CCc1c(C(=O)c2cc(C)cc(C)c2)n(CC2CC=CC2)c(=O)[nH]c1=O | cytopathic effect / XTT | CEM + CEM-SS |  | RT-K101E | NL4-3 | >0.14 µM |
| CCCCCCCCCCCC(=O)NCC(COP(=O)([O-])OCC[N+](C)(C)C)OCCCCCCCC | syncytia | CEM |  |  | IIIB | 0.19 µM |
| CC(C)c1nc(CN(C)C(=O)N[C@H](C(=O)N[C@@H](Cc2ccccc2)C[C@H](O)[C@H](Cc2ccccc2)NC(=O)OCc2cncs2)C(C)C)cs1 |  | MT-4 |  |  | HXB2 | 0.78 µM |
| CCCCCCCCCCOC(CNC(=O)CCCCCCCCC)COP(=O)([O-])OCC[N+](C)(C)C | syncytia | CEM |  |  | IIIB | 0.06 µM |
| O=C1N(Cc2ccc(O)cc2)[C@H](Cc2ccccc2)[C@H](O)CN(Cc2ccccc2)N1Cc1ccc(O)cc1 | cytopathic effect / MTT | MT-4 |  |  |  | 0.01 µM |
| Cc1cn([C@H]2C[C@H](N=[N+]=[N-])[C@@H](CO)O2)c(=O)[nH]c1=O | RT activity | PBMC |  |  | LAV | 0.002 µM |
| CC(C)c1cc(=O)oc2c3c(c4c(c12)OC(C)(C)C=C4)OC(C)C(C)C3=O |  | CEM + CEM-SS |  |  | RF | 5.57 µM |
| Nc1nccc2c1ncn2[C@@H]1C[C@H](CO)[C@@H](O)[C@H]1O | cytopathic effect / trypan blue | MT-4 |  |  |  | >500 µM |
| O=C(NCCc1c[nH]c2ccccc12)C1=Cc2ccncc2CC1 | cytopathic effect / XTT | CEM + CEM-SS |  |  | RF | >51 µM |
| Cc1c(OC(=O)CCCCO[C@H]2O[C@H](CO)[C@@H](O)[C@H](O)[C@@H]2O)cccc1C(=O)N[C@@H](CSc1ccccc1)[C@@H](CN1C[C@H]2CCCC[C@H]2C[C@H]1C(=O)NC(C)(C)C)OC(=O)CCCCO[C@H]1O[C@H](CO)[C@@H](O)[C@H](O)[C@@H]1O | RT activity | CEM + CEM-SS |  |  | LAI | 2.12 µM |
| CC(C)(C)C(=O)SCCOC(=O)P(=O)(OCCSC(=O)C(C)(C)C)OCCSC(=O)C(C)(C)C | RT activity | CEM + CEM TK- |  |  | LAI | 8.2 µM |
| Nc1cccc(-c2c3nc(c(-c4cccc(N)c4)c4ccc([nH]4)c(-c4cccc(N)c4)c4nc(c(-c5cccc(N)c5)c5ccc2[nH]5)C=C4)C=C3)c1 | RT activity | PBMC |  |  | LAV | 11.1 µM |
| Nc1nc2c(ncn2[C@H]2C[C@H](O)[C@@H](CO)O2)c(=O)[nH]1 | cytopathic effect / trypan blue | MT-4 |  |  |  | >500 µM |
| COC(=O)[C@H](C)NP(=O)(OC[C@H]1O[C@@H](n2cc(C)c(=O)[nH]c2=O)C[C@@H]1N=[N+]=[N-])OC(Cl)(Cl)Cl | p24 | C8166 |  |  | IIIB | 0.4 µM |
| Cc1cn([C@H]2C[C@H](N=[N+]=[N-])[C@@H](CO)O2)c(=O)[nH]c1=O | syncytia | CEM |  |  | G-691 POST-AZT | 2.02 µM |
| O=c1[nH]cnc2c1ncn2[C@H]1CC[C@@H](CO)O1 |  | CEM |  |  | IIIB | 8.3 µM |
| CC(C)c1cc(=O)oc2c3c(c4c(c12)OC(C)(C)C=C4)O[C@H](C)[C@@H](C)C3=O |  | CEM + CEM-SS |  |  | IIIB | 1.88 µM |
| CC(C)(C)OC(=O)N[C@@H](Cc1ccccc1)[C@H](O)CNC[C@@H](O)[C@H](Cc1ccc(OCC(=O)N2CCOCC2)cc1)NC(=O)OC(C)(C)C | p24 | PBMC |  |  | 006 | 0.038 µM |
| Cc1c(OC(=O)CCCCO[C@H]2O[C@H](CO)[C@@H](O)[C@H](O)[C@@H]2O)cccc1C(=O)N[C@@H](CSc1ccccc1)[C@H](O)CN1C[C@H]2CCCC[C@H]2C[C@H]1C(=O)NC(C)(C)C | RT activity | CEM + CEM-SS |  |  | LAI | 0.339 µM |
| CCCc1cc(=O)oc2c3c(c4c(c12)OC(C)(C)C=C4)O[C@@H](C)[C@H](C)[C@@H]3O |  | CEM + CEM-SS |  |  | IIIB | 0.2 µM |
| Nc1ccn([C@H]2CC[C@@H](CO)O2)c(=O)n1 |  | CEM |  |  | IIIB | 0.05 µM |
| Nc1ccn([C@H]2CC[C@@H](CO)O2)c(=O)n1 | cytopathic effect / XTT | CEM + CEM-SS |  |  | RF | 0.048 µM |
| CCCCCCCCOC(=O)P(=O)(OCc1ccc(Cl)cc1)OCc1ccc(Cl)cc1 | RT activity | CEM + CEM-SS |  |  | LAI | >10 µM |
| Cc1ccnc2c1NC(=O)c1cccnc1N2C1CC1 | RT activity | MT-2 |  |  | PDBC | 0.054 µM |
| Cc1cn([C@H]2C=C[C@@H](COP3(=O)OCc4c(Cl)cccc4O3)O2)c(=O)[nH]c1=O |  | CEM |  |  |  | 0.1 µM |
| COC(=O)[C@H](C)NP(=O)(OC[C@H]1O[C@@H](n2cc(C)c(=O)[nH]c2=O)C[C@@H]1N=[N+]=[N-])Oc1ccccc1 | p24 | C8166 |  |  | IIIB | 0.08 µM |

For reference, 4 entries again:

compound,method,cell line,setting,mutations,strain,value
CC(C)(C)C(=O)SCCOC(=O)P(=O)(O)OCCSC(=O)C(C)(C)C,RT activity,CEM + CEM-SS,,,LAI,27 µM
CC(C)(C)NC(=O)[C@@H]1C[C@@H]2CCCC[C@@H]2CN1C[C@@H](OC(=O)CCCCOc1ccc(C[C@H](N)C(=O)O)cc1)[C@H](Cc1ccccc1)NC(=O)[C@H](CC(N)=O)NC(=O)c1ccc2ccccc2n1,RT activity,CEM + CEM-SS,,,LAI,0.039 µM
CC(C)c1nc(CN(C)C(=O)N[C@H](C(=O)N[C@@H](Cc2ccccc2)C[C@H](O)[C@H](Cc2ccccc2)NC(=O)OCc2cncs2)C(C)C)cs1,,MT-4,,,HXB2,0.78 µM
CC(C)c1cc(=O)oc2c3c(c4c(c12)OC(C)(C)C=C4)C[C@H](C)[C@@H](C)[C@@H]3O,,CEM + CEM-SS,,,SKI,0.09 µM

ECn: concentration that inhibits the pathogen or its effect by n%. Neighbouring rows are from separate reports.